Results of unrelated studies side by side (data: NIAID ChemDB).

Shared fields: tests on isolated targets

Blank or dashed fields: not listed here.

structure | strain or isolate | target | endpoint | method | species | dose | result
C[C@@H]1CCCC[C@H]1n1c(-c2cccn2C)nc2cc(C(=O)NC3(C(=O)Nc4ccc(/C=C/C(=O)O)cc4)CCCC3)ccc21 |  | NS5B polymerase | IC50 |  | Hepatitis C virus |  | 0.5–5 µM
Cc1ccc(C(=O)Nc2cccnc2)c(Nc2ccc3cn[nH]c3c2)n1 |  | DNA polymerase | IC50 |  | Hepatitis B virus |  | <1 µg/mL
COc1ccc(-c2cnc3c(C(=O)O)cnn3c2C2CCCCC2)cc1F |  | RNA-dependent RNA polymerase | IC50 |  | Hepatitis C virus |  | 1–10 µM
CC(=O)N[C@H](C(=O)N[C@@H](CCC(=O)O)C(=O)N[C@@H](CCC(=O)O)C(=O)NC1(C(=O)O)CC1)C1CCCCC1 |  | Nonstructural protein 3 NTPase/helicase | inhibition |  | Hepatitis C virus | 83.5 µM | 18%
CCNc1cccnc1N1CCN(C(=O)c2ccc(C(=O)NCc3ccccn3)cn2)CC1 |  | Reverse transcriptase | IC50 |  | Hepatitis B virus |  | 0.116 µg/mL
C=CC1CC1(NC(=O)[C@@H]1C[C@@H](Oc2cc(-c3ccccc3)nc3cc(OC)ccc23)CN1C(=O)[C@@H](NC(=O)OC(C)(C)C)C(C)(C)C)C(=O)NS(C)(=O)=O | BMS | NS3/NS4A protease | IC50 |  | Hepatitis C virus |  | <0.05 µM
CC(C)Nc1cccnc1N1CCN(C(=O)c2ccc(C(=O)NC3CC3)cn2)CC1 |  | Reverse transcriptase | IC50 |  | Hepatitis B virus |  | 0.237 µg/mL
CC(NC(=O)c1ccc2c(c1)nc(-c1ccoc1)n2C1CCCCC1)C(=O)Nc1ccc(Cl)c(/C=C/C(=O)O)c1 |  | NS5B polymerase | IC50 |  | Hepatitis C virus |  | 0.5–5 µM
O=C(O)c1cc2nccc(-c3ccccc3-c3ccsc3)n2n1 |  | RNA-dependent RNA polymerase | IC50 |  | Hepatitis C virus |  | 1–10 µM
CCOC(=O)C1CCN(c2nc(Nc3ccc4[nH]ncc4c3)nc(OC)n2)CC1 |  | Nonstructural protein 5B | inhibition |  | Hepatitis C virus | 1 µg/mL | 15%
COc1cc(O[C@@H]2C[C@@H](C(=O)NC3(C(=O)NS(=O)(=O)C4CC4)CC34CC4)N(C(=O)[C@@H](NC(=O)OC(C)(C)C)C(C)(C)C)C2)c2ccc(-c3ccccc3)cc2n1 | BMS | NS3/NS4A protease | IC50 |  | Hepatitis C virus |  | <0.05 µM
Cc1ccc(C(=O)NCCO)c(Nc2ccc3cn[nH]c3c2)n1 |  | DNA polymerase | IC50 |  | Hepatitis B virus |  | ~0.01 µg/mL
NC(=O)CC[C@H](NC(=O)[C@@H](NC(=O)CCC(=O)O)C1CCCCC1)C(=O)N[C@@H](CC1CCCCC1)C(=O)N[C@@H](CS)C(=O)O |  | Nonstructural protein 3 NTPase/helicase | inhibition |  | Hepatitis C virus | 16.7 µM | 51%
CC(C)Nc1cccnc1N1CCN(C(=O)c2ccc(C(=O)NCCO)cn2)CC1 |  | Reverse transcriptase | IC50 |  | Hepatitis B virus |  | 0.261 µg/mL
CNC1N=C(OC)N=C(Nc2ccc3cn[nH]c3c2)N1CN |  | DNA polymerase | inhibition |  | Hepatitis B virus | 0.1 µg/mL | 36%
Cc1ccc(C(=O)NCc2cccnc2)c(Nc2ccc3cn[nH]c3c2)n1 |  | DNA polymerase | IC50 |  | Hepatitis B virus |  | ~0.1 µg/mL
CC(C)COC(=O)N[C@@H](CCC(=O)O)CC(=O)N[C@H](CC(C)C)C(=O)N[C@H](CC(F)F)C(=O)NCCc1ccc(C(=O)O)cc1Cl |  | NS3 serine protease | IC50 |  | Hepatitis C virus |  | 0.6 µM
CC(C)C[C@H](NC(=O)CCC(=O)O)C(=O)N[C@@H](CCC(=O)O)C(=O)N[C@@H](CCC(=O)O)C(=O)N[C@@H](CS)C(=O)O |  | Nonstructural protein 3 NTPase/helicase | inhibition |  | Hepatitis C virus | 167 µM | 100%
C=C[C@@H]1C[C@]1(NC(=O)[C@@H]1C[C@@H](Oc2cc(-c3ccccc3)nc3cc(OC)ccc23)CN1C(=O)[C@H](CC(C)C)NC(=O)OC(C)(C)C)C(=O)NS(=O)(=O)C(C)C | BMS | NS3/NS4A protease | IC50 |  | Hepatitis C virus |  | <0.05 µM
CCNc1cccnc1N1CCN(C(=O)c2ccc(C(=O)NC(C)C)cn2)CC1 |  | Reverse transcriptase | IC50 |  | Hepatitis B virus |  | 0.006 µg/mL
Cc1ccc(Cl)cc1Oc1ccc(-c2cnc3c(-c4nn[nH]n4)cnn3c2C2CCCCC2)cc1 |  | RNA-dependent RNA polymerase | IC50 |  | Hepatitis C virus |  | 1–10 µM
Cc1ccc(C(=O)NCCCn2ccnc2)c(Nc2ccc3cn[nH]c3c2)n1 |  | DNA polymerase | IC50 |  | Hepatitis B virus |  | ~0.01 µg/mL
CCC(C)[C@H](NC(=O)[C@@H](NC(=O)CCC(=O)O)C1CCCCC1)C(=O)N[C@@H](CCC(=O)O)C(=O)NC1(C(=O)O)CC1 |  | Nonstructural protein 3 NTPase/helicase | inhibition |  | Hepatitis C virus | 167 µM | 28%
CC[C@H](NC(=O)[C@@H](NC(=O)[C@@H](NC(=O)[C@H](CC(C)C)NC(=O)[C@@H](CCC(=O)O)NC(=O)[C@H](CC(=O)O)NC(C)=O)[C@@H](C)CC)C1CCCCC1)C(=O)O |  | HCV NS3 protease | inhibition |  | Hepatitis C virus | 10 µM | 60%
CC(C)NC(=O)c1ccc(C(=O)N2CCN(c3ncccc3N)CC2)nc1 |  | Reverse transcriptase | IC50 |  | Hepatitis B virus |  | 0.023 µg/mL
O=C(O)CNC(=O)c1ccc(NC(=O)C2(NC(=O)c3ccc4c(c3)nc(-c3ccoc3)n4C3CCCCC3)CCCC2)cc1 |  | NS5B polymerase | IC50 |  | Hepatitis C virus |  | 0.5–5 µM
COc1nc(NCCO)nc(Nc2ccc3cn[nH]c3c2)n1 |  | DNA polymerase | inhibition |  | Hepatitis B virus | 0.1 µg/mL | 33%
O=C(O)CCC(=O)N[C@H](C(=O)N[C@@H](CCC(=O)O)C(=O)N[C@@H](CCC(=O)O)C(=O)N[C@@H](CS)C(=O)O)C(c1ccccc1)c1ccccc1 |  | Nonstructural protein 3 NTPase/helicase | inhibition |  | Hepatitis C virus | 167 µM | 100%
COc1cccc(-c2cc(-c3cc(Cl)cc(Cl)c3)n3nc(C(=O)O)cc3n2)c1 |  | RNA-dependent RNA polymerase | IC50 |  | Hepatitis C virus |  | >10 µM
N[C@H](C(=O)N[C@@H](CCC(=O)O)C(=O)N[C@@H](CCC(=O)O)C(=O)N[C@@H](CS)C(=O)O)C1CCCCC1 |  | Nonstructural protein 3 NTPase/helicase | IC50 |  | Hepatitis C virus |  | >167 µM
Clc1cc(Cl)cc(Oc2ccc(-c3cnc4c(-c5nn[nH]n5)cnn4c3C3CCCCC3)cc2)c1 |  | RNA-dependent RNA polymerase | IC50 |  | Hepatitis C virus |  | 1–10 µM
Cc1cc(NC(=O)c2ccc(C(=O)N3CCN(c4ncccc4NC(C)C)CC3)nc2)no1 |  | Reverse transcriptase | IC50 |  | Hepatitis B virus |  | 0.11 µg/mL
CC[C@H](NC(=O)[C@@H](NC(=O)[C@@H](NC(=O)[C@H](CC(C)C)NC(=O)[C@@H](CCC(=O)O)NC(=O)[C@H](CC(=O)O)NC(C)=O)[C@@H](C)CC)C1CCCCC1)C(=O)CCc1ccc(OC)cc1 |  | HCV NS3 protease | IC50 |  | Hepatitis C virus |  | 1–10 µM
CCOC(=O)C1=CN(N2CCN(c3nc(Nc4ccc5cn[nH]c5c4)nc(OC)n3)CC2)C(SC)N=C1 |  | Nonstructural protein 5B | inhibition |  | Hepatitis C virus | 10 µg/mL | 36%
C=C[C@@H]1C[C@]1(NC(=O)[C@@H]1C[C@@H](Oc2cc(-c3ccccc3)nc3cc(OC)ccc23)CN1C(=O)[C@@H](NC(=O)OC(C)(C)C)C(C)(C)C)C(=O)NS(=O)(=O)CCCC | BMS | NS3/NS4A protease | IC50 |  | Hepatitis C virus |  | <0.05 µM
COc1nc(Nc2ccc3cn[nH]c3c2)nc(NN2CCN(C)CC2)n1 |  | DNA polymerase | inhibition |  | Hepatitis B virus | 0.01 µg/mL | 2%
C=C[C@@H]1C[C@]1(NC(=O)[C@@H]1C[C@@H](Oc2cc(-c3ccccc3)nc3cc(OC)ccc23)CN1C(=O)[C@@H](N)C(C)(C)C)C(=O)NS(=O)(=O)C1CC1 | BMS | NS3/NS4A protease | IC50 |  | Hepatitis C virus |  | <0.05 µM
CCNc1cccnc1N1CCN(C(=O)c2ccc(C(=O)NC(C)(C)CO)cn2)CC1 |  | Reverse transcriptase | IC50 |  | Hepatitis B virus |  | 0.068 µg/mL
O=C(O)CCC(=O)N[C@H](C(=O)N[C@@H](CCC(=O)O)C(=O)N[C@@H](CCC(=O)O)C(=O)NC1(C(=O)O)CC1)C1CCCCC1 |  | Nonstructural protein 3 NTPase/helicase | inhibition |  | Hepatitis C virus | 167 µM | 54%
COc1nc(Nc2ccc3cn[nH]c3c2)nc(N2CCN(C)CC2)n1 |  | Nonstructural protein 5B | inhibition |  | Hepatitis C virus | 0.1 µg/mL | 0%
O=C1NC(=O)C(Cc2cnn3c(C4CCCCC4)c(-c4ccc(OCc5ccccc5)cc4)cnc23)S1 |  | RNA-dependent RNA polymerase | IC50 |  | Hepatitis C virus |  | >10 µM
Cc1cn([C@H]2C[C@H](Cl)[C@@H](COP(=O)(O)OP(=O)(O)OP(=O)(O)O)O2)c(=O)nc1N |  | DNA polymerase | IC50 |  | Hepatitis B virus |  | <100 µM
CCOC(=O)C1=CN(N2CCN(c3nc(Nc4ccc5[nH]ncc5c4)nc(OC)n3)CC2)C(SC)N=C1 |  | DNA polymerase | inhibition |  | Hepatitis B virus | 0.01 µg/mL | 0%
CCCC(=O)[C@H](CC)NC(=O)[C@@H](NC(=O)[C@@H](NC(=O)[C@H](CC(C)C)NC(=O)[C@@H](CCC(=O)O)NC(=O)[C@H](CC(=O)O)NC(C)=O)[C@@H](C)CC)C1CCCCC1 |  | HCV NS3 protease | IC50 |  | Hepatitis C virus |  | 1–10 µM
C=C[C@@H]1C[C@]1(NC(=O)[C@@H]1C[C@@H](Oc2cc(-c3ccccc3)nc3cc(OC)ccc23)CN1C(=O)[C@@H](NC(=O)OC(C)(C)C)C(C)(C)C)C(=O)NS(=O)(=O)c1cccc(Br)c1 | BMS | NS3/NS4A protease | IC50 |  | Hepatitis C virus |  | <0.05 µM
O=C(c1ccccc1)N1CCC2(CCCN(c3ncc(-c4ccccc4)c(-c4ccc(Cl)cc4)n3)C2)CC1 |  | Nonstructural protein 4B | IC50 | radioligand binding / binding | Hepatitis C virus |  | 0.0458 µM
O=C(O)CCC(=O)N[C@@H](CCC(=O)O)C(=O)N[C@@H](CCC(=O)O)C(=O)NC1(C(=O)O)CC1 |  | Nonstructural protein 3 NTPase/helicase | IC50 |  | Hepatitis C virus |  | >83.5 µM
C=CC1CC1(NC(=O)OC(C)(C)C)C(=O)N1C[C@H](Oc2cc(-c3ccccc3)nc3cc(OC)ccc23)C[C@H]1C(=O)N[C@]1(C(=O)NS(=O)(=O)C2CC2)C[C@H]1CC | BMS | NS3/NS4A protease | IC50 |  | Hepatitis C virus |  | <0.5 µM
CC[C@H](C)[C@H](NC(=O)[C@H](CC(C)C)NC(=O)CCCC(=O)O)C(=O)N[C@@H](CC1CCCCC1)C(=O)NC1(C(=O)O)CC1 |  | Nonstructural protein 3 NTPase/helicase | inhibition |  | Hepatitis C virus | 167 µM | 12%
C=C[C@@H]1C[C@]1(NC(=O)[C@@H]1C[C@@H](Oc2cc(-c3ccccc3)nc3cc(OC)ccc23)CN1C(=O)[C@@H](NC(=O)COc1ccc(F)cc1)C(C)(C)C)C(=O)NS(=O)(=O)C1CC1 | BMS | NS3/NS4A protease | IC50 |  | Hepatitis C virus |  | <0.05 µM
Nc1cccnc1N1CCN(C(=O)c2ccc(C(=O)NCCO)cn2)CC1 |  | Reverse transcriptase | IC50 |  | Hepatitis B virus |  | 0.003 µg/mL
O=C(O)/C=C/c1ccc(N2CCOCC2)c(NC(=O)C2(NC(=O)c3ccc4c(c3)nc(-c3ccoc3)n4C3CCCCC3)CCCC2)c1 |  | NS5B polymerase | IC50 |  | Hepatitis C virus |  | 0.5–5 µM
O=C(C1CCCC1)N1CCC2(CCCN(c3ncc(-c4ccccc4)c(-c4ccc(Cl)cc4)n3)C2)CC1 |  | Nonstructural protein 4B | IC50 | radioligand binding / binding | Hepatitis C virus |  | 0.061 µM
O=C(O)c1cnn2c(-c3ccc(Cl)cc3)cc(-c3ccc(F)cc3)nc12 |  | RNA-dependent RNA polymerase | IC50 |  | Hepatitis C virus |  | >10 µM
CC(NC(=O)c1ccc2c(c1)nc(-c1ccoc1)n2C1CCCCC1)C(=O)Nc1ccc(C(C)C(=O)O)cc1 |  | NS5B polymerase | IC50 |  | Hepatitis C virus |  | 0.5–5 µM

ICn is the concentration giving n% inhibition. Two numbers with a dash give a range or band. Percent inhibition refers to the dose given; in toxicity tests it is the harm to the cells. Lines come from different laboratories, so protocols vary.